{"source": "PubChem BioAssay AID504761 (Drosophila RNAi Screening Center, 2011)", "aim": "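Insect host genes that dengue virus relies on to spread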 (primary screen)", "cell system": "D.Mel-2 cells from Drosophila", "knock-down reagent": "long dsRNA against Drosophila genes", "conditions": "infection with dengue virus type 2; dose and infection time not stated", "read-out": "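Cells stained for dengue envelope protein and imaged; percent of infected cells per well on duplicate plates, ranked by infection, with stained nuclei counted for cell number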", "reading the numbers": "infection score: higher = more virus-infected cells; cell count: higher = more cells in the well", "hit rule": "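Low infection ranks in the two replicates (chance level up to 0.065) followed by a retest with a 1.5-fold or larger significant decrease, p below 0.05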", "meaning of the calls": "active = confirmed: knock-down lowers infection; inactive = not picked or not confirmed", "note": "The deposit covers about 22,000 reagents; shown is a random part of those with a known target gene and a result. In the full data, 116 (0.52%) are marked active. 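Calls depend on retest data that are not deposited; infection was ranked per plate without normalising between plates; the unit of the infection score is not given.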 The raw values are shown without normalisation. A number with no mark means an inactive call. Not all columns of the deposit are shown. The record does not give: the amount of reagent, the time to read-out."}
{"Gene": "CG33116", "dsRNA": "DRSC02045", "infection score, replicate 1": 21.8, "cell count, replicate 1": 6199}
{"Gene": "CG30195", "dsRNA": "DRSC04155", "infection score, replicate 1": 29.3, "cell count, replicate 1": 5344}
{"Gene": "Hex-t1 (Hexokinase testis 1)", "dsRNA": "DRSC16701", "infection score, replicate 1": 7.76, "cell count, replicate 1": 5321}
{"Gene": "Hex-t1 (Hexokinase testis 1)", "dsRNA": "DRSC26127", "infection score, replicate 1": 16.2, "cell count, replicate 1": 6162}
{"Gene": "CG30470 (retired record)", "dsRNA": "DRSC05553", "infection score, replicate 1": 5.61, "cell count, replicate 1": 4420}
{"Gene": "CG30470 (retired record)", "dsRNA": "DRSC06260", "infection score, replicate 1": 10.8, "cell count, replicate 1": 6876}
{"Gene": "CG30470 (retired record)", "dsRNA": "DRSC06261", "infection score, replicate 1": 10.4, "cell count, replicate 1": 6698}
{"Gene": "CG30470 (retired record)", "dsRNA": "DRSC06777", "infection score, replicate 1": 5.32, "cell count, replicate 1": 6573}
{"Gene": "CG30470 (retired record)", "dsRNA": "DRSC23183", "infection score, replicate 1": 2, "cell count, replicate 1": 6105}
{"Gene": "Hsc70-2 (Heat shock protein 70 cognate 2)", "dsRNA": "DRSC16710", "infection score, replicate 1": 9.62, "cell count, replicate 1": 5850}
{"Gene": "Hsc70-2 (Heat shock protein 70 cognate 2)", "dsRNA": "DRSC28457", "infection score, replicate 1": 15.2, "cell count, replicate 1": 3680}
{"Gene": "Cpr49Ab (Cuticular protein 49Ab)", "dsRNA": "DRSC05341", "infection score, replicate 1": 1.82, "cell count, replicate 1": 5835}
{"Gene": "Cpr49Ab (Cuticular protein 49Ab)", "dsRNA": "DRSC25034", "infection score, replicate 1": 4.9, "cell count, replicate 1": 6142}

In a second layout: results already given
{"Gene":"Hsc70-2 (Heat shock protein 70 cognate 2)","dsRNA":"DRSC28457","infection score, replicate 1":15.2,"cell count, replicate 1":3680}
{"Gene":"Cpr49Ab (Cuticular protein 49Ab)","dsRNA":"DRSC05341","infection score, replicate 1":1.82,"cell count, replicate 1":5835}
{"Gene":"Cpr49Ab (Cuticular protein 49Ab)","dsRNA":"DRSC25034","infection score, replicate 1":4.9,"cell count, replicate 1":6142}

Further reagents follow.
{"Gene": "CG10194", "dsRNA": "DRSC02025", "infection score, replicate 1": 10.1, "cell count, replicate 1": 6555}
{"Gene": "opm (opossum)", "dsRNA": "DRSC20141", "infection score, replicate 1": 3.59, "cell count, replicate 1": 6128}
{"Gene": "opm (opossum)", "dsRNA": "DRSC22135", "infection score, replicate 1": 2.86, "cell count, replicate 1": 5742}
{"Gene": "opm (opossum)", "dsRNA": "DRSC29575", "infection score, replicate 1": 1.27, "cell count, replicate 1": 629}
{"Gene": "PIG-A (Phosphatidylinositol glycan anchor biosynthesis class A)", "dsRNA": "DRSC06982", "infection score, replicate 1": 24, "cell count, replicate 1": 4755}
{"Gene": "NimC3 (Nimrod C3)", "dsRNA": "DRSC03556", "infection score, replicate 1": 13.8, "cell count, replicate 1": 6471}
{"Gene": "NimC3 (Nimrod C3)", "dsRNA": "DRSC22528", "infection score, replicate 1": 3.63, "cell count, replicate 1": 6620}
{"Gene": "NimC3 (Nimrod C3)", "dsRNA": "DRSC28582", "cell count, replicate 1": 310}
